This is an account of results in the supplement of paper PMC9931576.

Human monoclonal antibodies against the spike receptor-binding domain (heavy:light variable regions). IC50 against pseudoviruses bearing the spike of naturally observed variants; lower = stronger; >10 µg/ml means not reached at the top dose. No active / inactive call. The stated detection limit is 0.0005 µg/ml; values near or below 0.001 µg/ml lie at the floor of the assay. Where only a bound is given, the exact number is not on record here.

What all share (assay): pseudovirus neutralization IC50; higher = weaker neutralization
For assay [1], the target named is SARS-CoV-2 Omicron BA.1 spike pseudovirus. How it is done:
(§1)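 Single-round VSV luciferase pseudovirus mixed with antibody dilutions for 1 h and put on Huh-7 cells for about a day; IC50 from the dose curve.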

Assay [2] deals with SARS-CoV-2 Omicron BA.2 spike pseudovirus. How it is done:
as §1

Assay [3] has as its target SARS-CoV-2 Omicron BA.2.75 spike pseudovirus. How it is done:
as §1

For assay [4], the target named is SARS-CoV-2 Omicron BA.5 spike pseudovirus. How it is done:
as §1

For assay [5], the target named is SARS-CoV-2 Omicron BQ.1.1 spike pseudovirus. How it is done:
as §1

The target of assay [6] is SARS-CoV-2 Omicron XBB spike pseudovirus. How it is done:
as §1

In assay [7] the target is SARS-CoV-2 early D614G spike pseudovirus. On the procedure:
as §1

B1: BD55-5215 (protein)
chain 1: EVQLVESGGGLGQPGGSLRLSCAASGFTFSRYGMGWVRQAPGKGLEWVSVISGSGGATYYADSVKGRFTISRDNSKNTLFLQMNSLRVEDTAVYYCAKDGGQLQLVEIFTFDPWGRGTLVTVSS
chain 2: DIQMTQSPSSLSASVGDRVTITCRASQGIRNSLAWYQQKPGKAPKLLLYAASRLESGVPSRFSGSGSGTDYTLTISSLQPEDFATYYCQQYYSAWTFGQGTKVEIK
Consider B1, for which the “pseudovirus neutralization IC50” value in assay [1], in assay [2], in assay [3], in assay [4], in assay [5] and in assay [6] was > 10 µg/mL throughout. The “pseudovirus neutralization IC50” value in assay [7] amounted to 1.23 µg/mL.

B2: BD55-5219 (protein)
chain 1: QVQLVQSGSELKRLGASVTLSCKASGYTFTNYAINWVRQAPGHGLQWMGWINPDTGTPTYAQGFAGRFVFSLDSSVSTSYLQIRSLKADDTAVYYCARDANQWPRNQWFGPWGQGTLVTVSS
chain 2: DIVLTQSPDSLAVSLGERATINCKSSHSVFYSSSNQNDLAWYQQKPGQPPKLLIYWASIRESGVPDRFSGSGSGTDFTLTISSLQAEDVAVYYCQQHYSTPLTFGGGTKVEIK
For the molecule B2, the “pseudovirus neutralization IC50” value in assay [1], in assay [2], in assay [3], in assay [4], in assay [5] and in assay [6] was > 10 µg/mL each time. Further, in assay [7], the “pseudovirus neutralization IC50” value turned out to be 0.0136 µg/mL.

B3: BD55-1029 (protein)
chain 1: EVKLVESGGGLVQPGRSLRLSCAGSGFTFDDYAIHWVRQVAGKGLEWVSGMSRNSGTIGYVESVKGRFIISRDNAKNSLYLQMNRLRVEDTALYYCAKDSGKDTAMVWSSGWQNGMDVWGQGTTVIVSS
chain 2: EIVLTQSPATLSLSPGERATLSCRTSQNVSSFLAWYQQKAGQAPRLLIYDASNRATGIPARFSGSGSGTDFVLTISSLEPEDFAVYYCQQRSDWPPLTFGGGTKVEIK
Turning to B3, the “pseudovirus neutralization IC50” value in assay [1] is 0.854 µg/mL; in assay [2], 0.926 µg/mL; in assay [3], 0.462 µg/mL; in assay [4] it was > 10 µg/mL; in assay [5] it was > 10 µg/mL; in assay [6] it was > 10 µg/mL. Moreover, in assay [7], the “pseudovirus neutralization IC50” value is 0.126 µg/mL.

B4: BD55-5168 (protein)
chain 1: QVQLVQSGSEVKKPGSSVKVSCKASGGSFRSHAISWVRQAPGQGLEWMGCVIPTFDTANYAQNFRGRVTLTADESTSTAYMELTSLTSDDTAVYYCARLFPNGTPDSPTGPLDYWGQGTLVTVSS
chain 2: DIQMTQSPSSLSASVGDRVTITCQASQGIGNYLNWYQQKPGKAPKLLIYGASNLHTGVPSRFSGRGSGTHFTFTINSLQPEDVATYYCQQYDYVPMYTFGQGTKLEIK
For the molecule B4, the “pseudovirus neutralization IC50” value in assay [1] was 0.0663 µg/mL; in assay [2], 0.491 µg/mL; in assay [3], 0.405 µg/mL; in assay [4], 0.677 µg/mL; in assay [5], > 10 µg/mL; in assay [6], > 10 µg/mL. In addition, in assay [7], the “pseudovirus neutralization IC50” value was found to be 0.0639 µg/mL.

B5: BD55-4637 (protein)
chain 1: QITLKESGPTLVKPKQTLTLTCTFSGFSLKKNGVGVGWIRQPPGKALEWLALIYWDDSKRYNPSLKTRLTITGDTSKNQVVLTLTNVDPVDTATYFCAHRPDLDSDLIVVDAFDMWGQGTMVTVSS
chain 2: QSVLTQPPSASGTPGQRVTISCSGSSSNIGRNTVNWYQHLPGTVPKLLIYHNNHRPSGVPGRFSGSKSGTSASLAISGLQSEDEADYYCETWDDSLSGVVFGAGTRLTVL
On to B5, for which the “pseudovirus neutralization IC50” value is 0.0227 µg/mL in assay [1]; 0.0225 µg/mL in assay [2]; 0.0302 µg/mL in assay [3]; 0.0243 µg/mL in assay [4]; 0.0189 µg/mL in assay [5]; 0.0277 µg/mL in assay [6]. The “pseudovirus neutralization IC50” value in assay [7] turned out to be 0.0201 µg/mL.

B6: BD55-5212 (protein)
chain 1: QLQLQESGPGLVKPSETLSLTCAVSRGSISYGSFFWGWIRQPPGKGLEWIGTLDDSGSTYYNPSLKSRVTFSVDTSKNQFSLQLSSVTAADTAVYYCASTSSAWYKGYYFDFWGQGTLVTVSS
chain 2: QSVLTQPPSVSGAPGQRVTISCTGSSSNIGAGYNVQWYQQFPGTAPKLLIYGNRNRPSGVPDRFSASKSGTSASLAITGLQAEDEADYYCQSYDSSLSGWVLGTGTEVIVL
For B6, the “pseudovirus neutralization IC50” value in assay [1] is 3.3 µg/mL; in assay [2] it was 6.93 µg/mL; in assay [3], 3.97 µg/mL; in assay [4] it was 5.29 µg/mL; in assay [5] it was > 10 µg/mL; in assay [6] it was > 10 µg/mL. Besides, the “pseudovirus neutralization IC50” value in assay [7] was 0.925 µg/mL.

B7: BD55-4892 (protein)
chain 1: QVQLVESGGGVVQPGGSLRLSCAASGFTFSTYGMHWVRQAPGKGLEWVAVISYDGNNKYHADSVKGRFTISRDNSKNTLYLEMKSLRAEDTAVYYCAKEVNYGSGSFENEGRLDYWGQGTLVTVSS
chain 2: DIQMTQSPSSLSASVGDRVTITCRTSQSINRYLNWYQQKPGKAPKLLIYATSTLQSGVPSRFSGSGSGTDFILTISNLQPEDFAAYYCQQTYSIPWTFGQGTKVEIK
For B7, the “pseudovirus neutralization IC50” value in assay [1], in assay [2], in assay [3], in assay [4], in assay [5] and in assay [6] was > 10 µg/mL throughout. Besides, the “pseudovirus neutralization IC50” value in assay [7] worked out at 0.306 µg/mL.

B8: BD55-4495 (protein)
chain 1: QGHLVQSGAEVKEPGASVTLSCKASGYTFTNHFMHWVRQAPGQGLEWMARINPSGDSTNLAQKFQGRVSVTRDSSTSTVYMYLSRLRVEDTAVYYCARDRFPSPGNFVWGSPLGGMDVWGQGTTVTVSS
chain 2: SYDLAQPPSVSVSPGQTATITCSGAALPNQYAYWYQQKSGQAPVLLLYKDSERPSGIPERFSGSNSGTTVTLTISGVQAEDEAVYYCQSADSSTSYHVFGAGTKVTVL
For the molecule B8, the “pseudovirus neutralization IC50” value in assay [1] is 0.13 µg/mL; in assay [2], 0.146 µg/mL; in assay [3] it was 0.157 µg/mL; in assay [4] it was 0.321 µg/mL; in assay [5] it was > 10 µg/mL; in assay [6], > 10 µg/mL. Also, the “pseudovirus neutralization IC50” value in assay [7] is 0.0294 µg/mL.

B9: BD55-5201 (protein)
chain 1: QVQVVQSGAEVKKPGSSVKVSCEASGGTFSSDTIHWVRQAPGQGLEWMGRIIPIPGIVNYAQKFQGRVTITADKSTSIAYMELSSLRSEDTAVYYCASAPPRGYSGYDLLGNDPLDIWGQGTMVTVSS
chain 2: QSVLTQPPSVSGAPGQRVTISCTGSSSNIGAGYDVHWYQQLPGTAPKFFISVNNNRPSGVPDRFSGSKSGTSASLAITGLQAEDEAVYYCQSFDSSLSGSYVFGTGTKVTVL
Regarding B9, the “pseudovirus neutralization IC50” value in assay [1], in assay [2], in assay [3], in assay [4], in assay [5] and in assay [6] was > 10 µg/mL throughout. Moreover, the “pseudovirus neutralization IC50” value in assay [7] was determined as 0.0188 µg/mL.

B10: BD55-5228 (protein)
chain 1: QVHLVQSGSELKKPGASVKVSCKSSGHTFTIFAINWVRQAPGQGLEWMGWINTNTGNPTYAQGFTGRFVFSLDTSVNTAYLQISSLQPEDTAVYYCVGSNWGDYYFDPWGQGTLVTVSS
chain 2: EIVMTQSPATLSVSPGERATLSCRASYSLSSNLAWYQQKPGQAPRLLIYGASIRATGFPARFSGNGSGTEFTLTISSLQSEDFAVYYCQQYTSWPLTFGQGTKVEIK
On to B10, for which the “pseudovirus neutralization IC50” value in assay [1], in assay [2], in assay [3], in assay [4], in assay [5] and in assay [6] was > 10 µg/mL in each case. In assay [7], the “pseudovirus neutralization IC50” value came to 0.006 µg/mL.

B11: BD55-4760 (protein)
chain 1: EVQLVEAGGDLVQPGRSLRLSCAASGFNFDDCAMHWVRQAPGKGLEWVSGINWSSGDIDYADSVKGRFTISRDNAKNSLYLQMNSLRPEDTAFYYCAKDPWGELSSIDFWGQGTLVTVSS
chain 2: QLVLTQSPSASASLGASVKLTCTLSRGHSSYAIAWHQQQPEKGPRYLMRVNSDGSHIKGDGIPDRFSGSSSGAERYLTISSLQSEDEADYYCQTWSIGIRVFGGGTKLTVL
Take B11: the “pseudovirus neutralization IC50” value in assay [1], in assay [2], in assay [3], in assay [4], in assay [5] and in assay [6] was > 10 µg/mL each time. The “pseudovirus neutralization IC50” value in assay [7] is 0.242 µg/mL.

B12: BD55-5163 (protein)
chain 1: QVQLVQSGAEVKKPGASLKVSCKASGYTFTYFGVSWVRQAPGQGLEWVGWISTYHGDTNYAQKLQGRVTLTTDTSTSTVYMELRNLRSDDTAIYYCAREGGSGWGDFWGQGTLVTVSS
chain 2: EIVLTQSPATLSLSPGERATLSCRANQSISNYLAWYQQRPGQAPRLLIFDASNRATGIPARFTGSGSETDFTLTISSLEPEDFAVYYCQQRSNWPPAFGQGTRLDIK
For B12, the “pseudovirus neutralization IC50” value in assay [1], in assay [2], in assay [3], in assay [4], in assay [5] and in assay [6] was > 10 µg/mL throughout. In assay [7], the “pseudovirus neutralization IC50” value amounted to 0.0337 µg/mL.
